Anti-infective test results gathered from many reports (values: NIAID ChemDB through PubChem).

All rows: tests in culture; species: Pneumocystis carinii; endpoint: EC50

ECn: concentration that inhibits the pathogen or its effect by n%. Neighbouring rows are from separate reports.

{"compound": "N=C(N)c1ccc(OCCCCCOc2ccc(C(=N)N)cc2)cc1", "result": "0.29 µg/mL"}
{"compound": "C[C@@H]1CC[C@H]2[C@@H](C)C(=O)O[C@@H]3OC4(C)CC[C@@H]1[C@]32OO4", "result": "0.5 µM"}
{"compound": "CN(Cc1cnc2nc(N)nc(N)c2n1)c1ccc(C(=O)N[C@@H](CCC(=O)N[C@@H](CCC(=O)N[C@@H](CCC(=O)N[C@@H](CCC(=O)O)C(=O)O)C(=O)O)C(=O)O)C(=O)O)cc1", "result": "1.4 µM"}
{"compound": "Cc1cn([C@H]2C=C[C@@H](CO)O2)c(=O)[nH]c1=O", "result": ">100 µg/mL"}
{"compound": "Nc1nc(N)c2nc(CN(CCO)c3ccc(C(=O)NC(CCC(=O)O)C(=O)O)cc3)cnc2n1", "result": "67 µM"}
{"compound": "O=c1[nH]cnc2c([C@@H]3O[C@H](CO)[C@@H](O)[C@H]3O)c[nH]c12", "result": ">1 µg/mL"}
{"compound": "O=c1[nH]cnc2c1ncn2[C@H]1CC[C@@H](CO)O1", "result": ">100 µg/mL"}
{"compound": "N/C(=N\\C1=NCCN1)c1ccc(NC(=O)C2CC2C(=O)Nc2ccc(/C(N)=N/C3=NCCN3)cc2)cc1", "cells": "A549", "result": "8.2 µg/mL"}
{"compound": "COc1cc(NC(C)CCCN)c2ncccc2c1", "setting": "10 d", "result": "<10 µg/mL"}
{"compound": "Cc1c(CNc2ccc(Cl)c(C(=O)NC(CC(=O)O)C(=O)O)c2)ccc2nc(N)nc(N)c12", "result": "1.4 µM"}
{"compound": "O=C(O)CNCP(=O)(O)O", "setting": "20 h", "result": "0.052 µM"}
{"compound": "CCOC(=O)c1ccc(N2CCN(c3ccc(C(=O)OCC)cc3)CC2)cc1", "cells": "A549", "result": ">100 µg/mL"}
{"compound": "CC(C)(C)NC(=O)[C@@H]1CN(Cc2cccnc2)CCN1C[C@@H](O)C[C@@H](Cc1ccccc1)C(=O)N[C@H]1c2ccccc2C[C@H]1O", "result": "35.4 µg/mL"}
{"compound": "c1ccc(N2CCN(c3ccccc3)C2c2ccc(N3CCN(c4ccc(C5N(c6ccccc6)CCN5c5ccccc5)cc4)CC3)cc2)cc1", "cells": "A549", "result": ">100 µg/mL"}
{"compound": "CN(Cc1cnc2nc(N)nc(N)c2n1)c1ccc(C(=O)N[C@@H](CCC(=O)O)C(=O)O)c2ccccc12", "result": "0.1 µM"}
{"compound": "c1cc(N2CCCN(c3ccc(/C(=N\\C4=NCCCN4)NC4=NCCCN4)cc3)CC2)ccc1/C(=N/C1=NCCCN1)NC1=NCCCN1", "cells": "A549", "result": "2.18 µg/mL"}
{"compound": "CN(Cc1cnc2nc(N)nc(N)c2n1)c1ccc(C(=O)N[C@H](CCC(=O)O)C(=O)O)cc1I", "result": "15.7 µM"}
{"compound": "NC(=NC1CC1)c1ccc(N2CCN(c3ccc(C(N)=NC4CC4)cc3)CC2)cc1", "cells": "A549", "result": "3.01 µg/mL"}
{"compound": "Nc1ccc(S(=O)(=O)Nc2cc(Cl)cc(Cl)c2)cc1", "setting": "5 d", "result": "<100 µM"}
{"compound": "CN(Cc1cnc2nc(N)nc(N)c2n1)c1c(F)cc(C(=O)N[C@H](CCC(=O)O)C(=O)O)cc1F", "result": "1.5 µM"}
{"compound": "Cc1cc(NS(=O)(=O)c2ccc(N)cc2)no1", "setting": "5 d", "result": ">100 µM"}
{"compound": "CN(Cc1cnc2nc(N)nc(N)c2n1)c1c(Cl)cc(C(=O)N[C@@H](CCC(=O)O)C(=O)O)cc1Br", "result": "8.1 µM"}